Reference: PubChem BioAssay AID1259414 (Drosophila RNAi Screening Center, 2018)
In all, the deposit lists about 24,000 reagents; below is an unselected part of those that have a named target and a result. Of all reagents, about 1,210 (5%) got an active call. 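Inactive calls also include excluded dsRNAs with several or no targets, genes unexpressed in JW18, and well A1, regardless of score.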 Reagent sequences are not shown.

Test: 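Genome-wide screen for host control of endosymbiont load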 (primary screen)
System: Drosophila JW18 cells infected with Wolbachia
Reagent: long dsRNA against Drosophila genes, 0.25 µg dsRNA per well of a 384-well plate
Time to read-out: 5 days
Challenge: cells persistently infected with Wolbachia before knock-down; no added drug
Detection: 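Imaged fluorescence in situ signal for Wolbachia 23S rRNA per DAPI-counted host cell, given as a robust z-score within each plate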
Scale: Wolbachia per cell robust z: higher = more Wolbachia per host cell than the plate typical
Active means: 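Active if absolute robust z reaches 1.5 in two or more of three replicates, leaving out multi- or no-target dsRNAs, genes unexpressed in JW18 and A1 wells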

gene	dsRNA	Wolbachia per cell robust z, rep 1	Wolbachia per cell robust z, rep 2	Wolbachia per cell robust z, rep 3	outcome
Polr1E	DRSC14506	0.14	0.242	-0.0143	inactive
Polr1E	DRSC15358	0.0739	0.203	0.226	inactive
gdrd	DRSC10020	-5.35	-2.66	-0.734	inactive
dpr4	DRSC14531	0.123	-0.661	-0.158	inactive
dpr4	DRSC14929	-0.371	0.115	1	inactive
bero	DRSC03211	1.86	-4.35	0.366	inactive
bero	DRSC24416	0.0827	0.141	0.397	inactive
CG13639	DRSC14638	0.224	-1.77	0.324	inactive
CG15877	DRSC08485	-2.45	0.179	0.584	inactive
Kua	DRSC02100	0.156	0.187	0.718	inactive
niki	DRSC14285	0.127	-1.84	-0.692	inactive
ItgaPS5	DRSC04501	-1.82	0.893	-0.116	inactive
ItgaPS5	DRSC28842	1.58	1.15	1.54	active
CG5819	DRSC04520	-0.783	-0.297	-0.335	inactive
CG5819	DRSC28265	0.839	1.01	0.692	inactive
Mst87F	DRSC16747	-5.48	-1.08	-0.638	inactive
Mst87F	DRSC25350	-1.25	-1.48	0.858	inactive
Lsp2	DRSC09841	0.637	-0.321	-0.452	inactive
Lsp2	DRSC11216	0.926	0.619	0.574	inactive
Lsp2	DRSC24021	-0.288	-1.34	-0.709	inactive
CNT2	DRSC07073	-0.465	0.848	0.213	inactive
CG11600	DRSC14332	0.29	0.285	0.247	inactive
CG11600	DRSC24238	0.618	-0.502	-0.412	inactive
CG13376	DRSC17901	0.268	1.07	1.13	inactive
CG14826	DRSC10197	-4.77	0.0526	-6.42	inactive
Obp99d	DRSC15046	-1.54	0.52	0.632	inactive
Drep4	DRSC03408	0.207	-1.7	-0.343	inactive
Su(P)	DRSC11291	0.974	-1.28	0.718	inactive
Su(P)	DRSC29947	0.393	0.251	0.64	inactive
Idgf4	DRSC18675	0.936	-1.06	0.762	inactive
Idgf4	DRSC24939	-3.22	-0.887	0.0907	inactive
Fis1	DRSC07772	-0.66	-2.23	-2.58	active
CG12898	DRSC06213	-1.51	-2.12	-3.91	inactive
CG8379	DRSC16414	0.789	-0.061	0.736	inactive
SdhCL	DRSC16078	-4.8	0.543	-1.01	inactive
Whamy	DRSC14574	-0.493	-1.47	-0.34	inactive
Whamy	DRSC28119	-0.583	0.657	0.923	inactive
CG6813	DRSC16122	0.022	-0.364	-0.0376	inactive
aust	DRSC02558	0.122	-2.05	0.68	inactive
aust	DRSC26019	-0.248	0.224	-0.177	inactive
Pvr	DRSC03080	4.5	7.88	9.67	active
Pvr	DRSC36840	-1.43	-1.21	-2.34	inactive
Nmdar1	DRSC12071	-7.2	-10.4	-5.43	inactive
Nmdar1	DRSC12356	-0.0848	-0.268	-6.72	inactive
Nmdar1	DRSC24657	-0.338	-4.2	-0.239	inactive
Paip2	DRSC14504	-0.307	-0.283	0.197	inactive
